Source: ChEMBL document CHEMBL6134861 (J Med Chem, 2025)

Sequences of proteins named here, by UniProt entry; tags and fusion partners are left off. Residues count along the entry.
UniProt P12389, 28-511 limits assumed: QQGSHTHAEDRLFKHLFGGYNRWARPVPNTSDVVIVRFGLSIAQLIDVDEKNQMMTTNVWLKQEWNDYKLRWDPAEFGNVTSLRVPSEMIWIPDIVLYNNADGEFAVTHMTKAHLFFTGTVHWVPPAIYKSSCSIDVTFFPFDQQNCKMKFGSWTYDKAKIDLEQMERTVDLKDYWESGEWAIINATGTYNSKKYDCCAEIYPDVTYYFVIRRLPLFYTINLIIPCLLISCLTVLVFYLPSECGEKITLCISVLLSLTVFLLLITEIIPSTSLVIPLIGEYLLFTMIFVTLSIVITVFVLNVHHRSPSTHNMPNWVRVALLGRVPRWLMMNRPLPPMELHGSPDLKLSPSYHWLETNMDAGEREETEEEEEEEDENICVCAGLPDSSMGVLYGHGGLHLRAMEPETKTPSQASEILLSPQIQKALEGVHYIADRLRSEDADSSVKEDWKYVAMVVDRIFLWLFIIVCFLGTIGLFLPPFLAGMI
UniProt P12390, 25-500 limits assumed: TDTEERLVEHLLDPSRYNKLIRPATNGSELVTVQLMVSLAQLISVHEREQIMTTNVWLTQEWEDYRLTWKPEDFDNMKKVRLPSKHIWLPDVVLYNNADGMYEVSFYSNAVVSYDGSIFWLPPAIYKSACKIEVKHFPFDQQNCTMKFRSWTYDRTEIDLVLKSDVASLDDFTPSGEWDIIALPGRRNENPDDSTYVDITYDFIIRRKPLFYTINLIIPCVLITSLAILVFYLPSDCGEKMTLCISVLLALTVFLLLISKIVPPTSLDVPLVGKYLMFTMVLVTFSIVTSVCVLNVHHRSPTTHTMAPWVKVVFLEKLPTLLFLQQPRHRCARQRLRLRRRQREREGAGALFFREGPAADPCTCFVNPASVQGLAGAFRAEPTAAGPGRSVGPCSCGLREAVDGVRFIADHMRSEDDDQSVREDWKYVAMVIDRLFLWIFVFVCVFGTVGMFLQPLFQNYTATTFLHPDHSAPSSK
UniProt P04757, 26-499 limits assumed: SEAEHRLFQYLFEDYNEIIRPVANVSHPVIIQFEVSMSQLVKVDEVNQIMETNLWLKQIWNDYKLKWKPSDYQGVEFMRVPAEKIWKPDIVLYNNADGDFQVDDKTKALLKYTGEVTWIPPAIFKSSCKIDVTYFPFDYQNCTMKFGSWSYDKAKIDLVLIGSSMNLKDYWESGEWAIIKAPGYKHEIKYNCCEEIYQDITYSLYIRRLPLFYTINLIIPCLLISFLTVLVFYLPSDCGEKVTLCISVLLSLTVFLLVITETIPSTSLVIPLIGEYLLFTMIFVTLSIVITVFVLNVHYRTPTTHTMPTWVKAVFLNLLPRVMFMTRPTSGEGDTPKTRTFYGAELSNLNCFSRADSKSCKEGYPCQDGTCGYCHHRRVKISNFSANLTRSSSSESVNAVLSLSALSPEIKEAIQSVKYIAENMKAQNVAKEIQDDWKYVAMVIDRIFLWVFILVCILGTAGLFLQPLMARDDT
UniProt P12392, 21-495 limits assumed: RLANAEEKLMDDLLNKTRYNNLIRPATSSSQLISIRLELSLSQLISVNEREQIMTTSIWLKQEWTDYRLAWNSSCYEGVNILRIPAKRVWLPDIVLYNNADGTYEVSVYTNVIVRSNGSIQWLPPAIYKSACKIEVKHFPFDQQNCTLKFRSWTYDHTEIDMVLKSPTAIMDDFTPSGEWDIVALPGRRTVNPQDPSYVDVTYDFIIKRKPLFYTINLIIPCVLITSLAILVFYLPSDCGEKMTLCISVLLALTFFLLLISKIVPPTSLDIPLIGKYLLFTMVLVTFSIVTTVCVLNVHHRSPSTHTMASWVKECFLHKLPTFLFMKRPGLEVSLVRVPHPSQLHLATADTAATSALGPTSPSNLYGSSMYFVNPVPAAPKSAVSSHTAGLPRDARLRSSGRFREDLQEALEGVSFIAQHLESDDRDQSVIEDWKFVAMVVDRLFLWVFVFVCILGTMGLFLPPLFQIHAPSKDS
UniProt P43143, 31-493 limits assumed: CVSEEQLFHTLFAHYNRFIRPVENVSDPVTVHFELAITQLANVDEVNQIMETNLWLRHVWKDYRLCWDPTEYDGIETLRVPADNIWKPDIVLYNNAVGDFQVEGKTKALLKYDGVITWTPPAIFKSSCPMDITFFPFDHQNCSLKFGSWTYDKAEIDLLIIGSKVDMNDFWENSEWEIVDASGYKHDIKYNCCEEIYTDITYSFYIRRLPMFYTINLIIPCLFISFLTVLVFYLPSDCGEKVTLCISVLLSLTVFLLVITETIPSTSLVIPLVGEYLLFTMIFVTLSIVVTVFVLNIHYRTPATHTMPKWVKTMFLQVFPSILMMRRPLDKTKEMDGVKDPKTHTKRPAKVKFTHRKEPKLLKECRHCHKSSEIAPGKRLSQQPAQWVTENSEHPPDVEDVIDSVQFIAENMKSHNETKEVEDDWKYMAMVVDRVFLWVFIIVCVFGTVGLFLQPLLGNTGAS
UniProt P09483, 31-630 limits assumed: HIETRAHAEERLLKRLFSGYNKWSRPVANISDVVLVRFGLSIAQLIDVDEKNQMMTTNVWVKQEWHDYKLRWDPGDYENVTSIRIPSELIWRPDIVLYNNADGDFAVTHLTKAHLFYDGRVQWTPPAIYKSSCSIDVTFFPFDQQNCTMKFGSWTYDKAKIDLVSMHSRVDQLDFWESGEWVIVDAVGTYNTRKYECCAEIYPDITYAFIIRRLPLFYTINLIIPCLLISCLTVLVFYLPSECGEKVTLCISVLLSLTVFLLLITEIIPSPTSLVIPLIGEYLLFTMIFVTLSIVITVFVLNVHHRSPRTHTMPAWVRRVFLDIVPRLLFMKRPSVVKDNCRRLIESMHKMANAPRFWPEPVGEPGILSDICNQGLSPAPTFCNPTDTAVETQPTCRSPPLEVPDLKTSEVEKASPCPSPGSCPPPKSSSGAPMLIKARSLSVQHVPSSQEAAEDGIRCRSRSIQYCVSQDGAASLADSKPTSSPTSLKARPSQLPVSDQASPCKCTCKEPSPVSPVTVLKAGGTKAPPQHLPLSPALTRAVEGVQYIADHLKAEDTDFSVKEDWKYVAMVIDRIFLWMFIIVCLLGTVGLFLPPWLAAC
UniProt Q05941, 23-502 limits assumed: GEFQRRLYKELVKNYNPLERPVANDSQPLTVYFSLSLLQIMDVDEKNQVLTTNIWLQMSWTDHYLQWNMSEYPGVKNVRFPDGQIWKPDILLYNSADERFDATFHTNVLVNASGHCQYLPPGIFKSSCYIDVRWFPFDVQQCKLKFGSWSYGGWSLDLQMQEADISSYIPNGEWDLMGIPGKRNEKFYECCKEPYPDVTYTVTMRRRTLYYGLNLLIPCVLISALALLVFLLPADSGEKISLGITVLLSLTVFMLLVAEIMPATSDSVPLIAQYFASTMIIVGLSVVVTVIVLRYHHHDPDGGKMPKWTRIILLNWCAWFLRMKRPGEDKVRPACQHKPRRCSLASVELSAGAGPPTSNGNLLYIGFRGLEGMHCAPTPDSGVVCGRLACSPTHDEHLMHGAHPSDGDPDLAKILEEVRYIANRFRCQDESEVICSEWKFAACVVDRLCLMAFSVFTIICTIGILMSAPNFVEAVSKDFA
UniProt P43144, 26-479 limits assumed: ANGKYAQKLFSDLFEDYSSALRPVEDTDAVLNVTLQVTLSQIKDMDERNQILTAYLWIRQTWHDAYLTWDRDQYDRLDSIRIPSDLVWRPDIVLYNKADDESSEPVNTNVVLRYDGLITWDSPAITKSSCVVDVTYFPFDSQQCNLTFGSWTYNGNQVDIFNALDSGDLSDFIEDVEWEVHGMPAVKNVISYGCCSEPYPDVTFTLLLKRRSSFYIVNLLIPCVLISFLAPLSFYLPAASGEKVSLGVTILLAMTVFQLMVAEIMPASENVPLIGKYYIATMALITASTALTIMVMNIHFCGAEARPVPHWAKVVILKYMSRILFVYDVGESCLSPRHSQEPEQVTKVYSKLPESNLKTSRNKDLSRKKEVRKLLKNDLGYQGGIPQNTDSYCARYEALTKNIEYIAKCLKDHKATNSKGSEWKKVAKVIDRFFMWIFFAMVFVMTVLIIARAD
UniProt Q9JLB5, 25-447 limits assumed: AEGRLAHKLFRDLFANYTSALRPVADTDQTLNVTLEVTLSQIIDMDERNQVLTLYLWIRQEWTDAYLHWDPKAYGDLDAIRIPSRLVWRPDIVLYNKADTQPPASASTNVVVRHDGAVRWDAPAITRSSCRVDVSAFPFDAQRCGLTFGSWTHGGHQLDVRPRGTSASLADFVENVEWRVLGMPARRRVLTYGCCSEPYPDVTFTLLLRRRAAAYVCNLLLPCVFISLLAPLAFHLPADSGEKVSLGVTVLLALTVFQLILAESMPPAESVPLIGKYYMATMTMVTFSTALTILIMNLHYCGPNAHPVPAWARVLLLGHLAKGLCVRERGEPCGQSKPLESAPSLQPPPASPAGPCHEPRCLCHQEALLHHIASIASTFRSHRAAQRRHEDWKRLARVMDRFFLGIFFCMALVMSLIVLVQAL

What was measured:
Details in all cases: oocyte
[1] = biological target: Neuronal acetylcholine receptor; alpha2/beta2 (Rattus norvegicus, UniProt P12389+P12390); assay: Inhibition of rat alpha2/beta2 nAChR expressed in Xenopus laevis oocytes assessed as inhibition of acetylcholine-induced current by two electrode voltage-clamp assay
[2] = biological target: Nicotinic acetylcholine receptor alpha6/alpha3/beta4 (Rattus norvegicus, UniProt P04757+P12392+P43143); assay: Inhibition of rat alpha6/alpha3/beta4 nAChR expressed in Xenopus laevis oocytes assessed as inhibition of acetylcholine-induced current by two electrode voltage-clamp assay
[3] = biological target: T1, Neuronal acetylcholine receptor; alpha4/beta2 (Rattus norvegicus, UniProt P09483+P12390); assay: Inhibition of rat alpha4/beta4 nAChR expressed in Xenopus laevis oocytes assessed as inhibition of acetylcholine-induced current by two electrode voltage-clamp assay
[4] = biological target: Neuronal acetylcholine receptor subunit alpha-7 (Rattus norvegicus, UniProt Q05941); assay: Inhibition of rat alpha7 nAChR expressed in Xenopus laevis oocytes assessed as inhibition of acetylcholine-induced current by two electrode voltage-clamp assay
[5] = biological target: Neuronal acetylcholine receptor; alpha3/beta4 (Rattus norvegicus, UniProt P04757+P12392); assay: Inhibition of rat alpha3/beta4 nAChR expressed in Xenopus laevis oocytes assessed as inhibition of acetylcholine-induced current by two electrode voltage-clamp assay
[6] = biological target: T1, Neuronal acetylcholine receptor; alpha4/beta2; assay: Inhibition of rat alpha4/beta2 nAChR expressed in Xenopus laevis oocytes assessed as inhibition of acetylcholine-induced current by two electrode voltage-clamp assay
[7] = biological target: Nicotinic acetylcholine receptor alpha9/alpha10 (Rattus norvegicus, UniProt P43144+Q9JLB5); assay: Inhibition of rat alpha9/alpha10 nAChR expressed in Xenopus laevis oocytes assessed as inhibition of acetylcholine-induced current by two electrode voltage-clamp assay
[8] = biological target: Neuronal acetylcholine receptor; alpha3/beta2 (Rattus norvegicus, UniProt P04757+P12390); assay: Inhibition of rat alpha3/beta2 nAChR expressed in Xenopus laevis oocytes assessed as inhibition of acetylcholine-induced current by two electrode voltage-clamp assay

CC[C@H](C)[C@@H]1NC(=O)[C@H](CC(=O)O)NC(=O)[C@@H]2CCCN2C(=O)[C@H](CC(N)=O)NC(=O)[C@H](CCC(N)=O)NC(=O)[C@H](CC(C)C)NC(=O)[C@H]([C@@H](C)CC)NC(=O)[C@@H]2CSSC[C@H](NC(=O)C(N)CC(=O)O)C(=O)N[C@@H](CSSC[C@@H](C(N)=O)NC1=O)C(=O)N[C@@H](CO)C(=O)N[C@@H](C)C(=O)N1CCC[C@H]1C(=O)N1CCC[C@H]1C(=O)N2 (stereo partly drawn)
IC50 [1]: > 10000 nM | IC50 [2]: 2080 nM | IC50 [3]: > 10000 nM | IC50 [4]: 35.3 nM | IC50 [5]: 3830 nM | IC50 [6]: > 10000 nM | IC50 [7]: > 10000 nM | IC50 [8]: 1820 nM
